Read-outs that look alike come from different tables or passages of the source.
Legend:
dpp-lacZ = dpp-lacZ expression in vivo (β-galactosidase)
dpp promoter region = assay: Gel mobility shift assay of CodY binding to the dpp promoter region; settings: CodY concentration that shifted 50% of the DNA

B1: A207V (protein, UniProt P39779 2-259, looked up, variant A207V)
Global transcriptional …: ALLQKTRIINSMLQAAAGKPVNFKEMAETLRDVIDSNIFVVSRRGKLLGYSINQQIENDRMKKMLEDRQFPEEYTKNLFNVPETSSNLDINSEYTAFPVENRDLFQAGLTTIVPIIGGGERLGTLILSRLQDQFNDDDLILAEYGATVVGMEILREKAEEIEEEARSKAVVQMAISSLSYSELEAIEHIFEELDGNEGLLVASKIVDRVGITRSVIVNALRKLESAGVIESRSLGMKGTYIKVLNNKFLIELENLKSH
For B1, the “derepression in vivo” value (dpp-lacZ) was “severe derepression”, the “β-galactosidase expression (Miller units) in mid-exponential cells” value (dpp-lacZ; dpp-lacZ, mid-exponential cells) was 116 Miller units and the Kd (dpp promoter region; read-out: Estimated KD (nM), +GTP, ILV, GTP (2 mM) and isoleucine, valine and leucine (10 mM each)) was greater than 500 nM. The Kd (dpp promoter region; read-out: Estimated KD (nM), No effectors) was greater than 500 nM.
